Compound potency records, mixed from different reports. Data source: NIAID ChemDB in PubChem.

All rows: growth or infection tests; species: Herpes simplex virus 2; endpoint: EC50

Blank or dashed fields: not listed here.

compound	strain	cell line	read by	value
O=C(NCc1ccc(Cl)cc1)c1cn2c3c(cc(CN4CCOCC4)cc3c1=O)OC(c1cccnc1)C2	L6010541 (WILD TYPE)	HFF	plaque count	16.3 µM
Cc1cn(C(CF)CCCO)c(=O)[nH]c1=O	G	ESM	cytopathic effect	>400 µg/mL
COc1ccc(-c2cn3c(=O)c4ncn(COC(CO)CO)c4nc3[nH]2)cc1	G		cytopathic effect	0.03 µg/mL
O=c1[nH]c(=O)n([C@@H]2O[C@H](CO)[C@@H](O)[C@@H]2O)cc1/C=C/Br	G	PRK	cytopathic effect	15 µg/mL
O=c1[nH]c(=O)n([C@@H]2OC3COP(=O)(O)OC3[C@H]2O)cc1I	G	PRK	cytopathic effect	>400 µg/mL
CC12CC[C@]3(C1)[C@H](CC2=O)[C@@H](O)C[C@H]1C(C)(C)CCC[C@@]13C		VERO		10 µg/mL
Nc1ccn([C@@H]2OC[C@H](CO)[C@H]2O)c(=O)n1	G	E6SM	cytopathic effect	>400 µg/mL
OC1=CC2C3C(=C1)O[C@H](c1ccc(O)cc1)[C@@H]3c1cc(O)cc(O)c1[C@@H]2[C@@H](c1ccc(O)cc1)[C@H](c1ccc(O)cc1)[C@H]1c2c(O)cc(O)cc2[C@H]2C3C(=CC(O)=CC31)O[C@H]2c1ccc(O)cc1		VERO	MTT	3.3 µM
Cc1cn([C@@H]2OCC(CO)=C2F)c(=O)[nH]c1=O				>100 µg/mL
CSCc1cn([C@H]2C[C@H](O)[C@@H](CO)O2)c(=O)[nH]c1=O	196	PRK	cytopathic effect	4 µg/mL
Cn1cc(C(=O)NCc2ccc(Cl)cc2)c(=O)c2cc(CN3CCOCC3)ccc21	Jensen (wild type)	HFF	plaque count	5.2 µM
Nc1nc2c(ncn2[C@H]2OC[C@@H](CO)C2O)c(=O)[nH]1	G	E6SM	cytopathic effect	9.6 µg/mL
O=C(Cc1ccccc1)NCCCCNC(=O)Cc1ccccc1			plaque count	>20 µg/mL
O=c1[nH]c(=O)n([C@H]2C[C@H](O)[C@@H](CO)O2)cc1I	G	PRK	cytopathic effect	0.4 µg/mL
O=c1[nH]c(=O)n([C@H]2C[C@H](O)[C@@H](CO)O2)cc1I	196	PRK	cytopathic effect	1 µg/mL
Nc1nc2c(ncn2C[C@H](CO)CCO)c(=O)[nH]1	R37	HEL	cytopathic effect / ELISA	>100 µM
O=c1c2ncn(COCCO)c2nc2[nH]c(-c3ccccc3)c(-c3ccc(C(c4ccccc4)c4ccccc4)cc3)n12	LYONS		cytopathic effect	>16 µg/mL
Cc1cn([C@@H]2OC[C@H](CO)[C@H]2N=[N+]=[N-])c(=O)[nH]c1=O	G	E6SM	cytopathic effect	>80 µg/mL
[N-]=[N+]=NC(CBr)c1cn(CCC(CO)CO)c(=O)[nH]c1=O	MS	VERO	plaque count	>270 µM
Oc1ccc([C@H]2c3c(O)cc(O)cc3[C@@H]3c4c(cc(O)c5c4[C@H]2[C@@H](c2cc(O)cc(O)c2)[C@@H]5c2ccc4c(c2)[C@@H](c2cc(O)cc(O)c2)[C@H](c2ccc(O)cc2)O4)O[C@H]3c2ccc(O)cc2)cc1		VERO	MTT	3.8 µM
Nc1nc2c(ncn2CCC(CO)CO)c(=O)[nH]1	Clinical isolate	MRC-5	hybridisation	0.5 µg/mL
CC1(CO)CCC(Cn2nnc3c(N)nc(N)nc32)C1(C)C	G	E6SM	cytopathic effect	300 µg/mL
O=c1ccn(N2C[C@H](CO)[C@H]2CO)c(=O)[nH]1		VERO	plaque count	>10 µg/mL
CC1(CO)CCC(Cn2cnc3c(Cl)nc(N)nc32)C1(C)C	G	E6SM	cytopathic effect	>100 µg/mL
Nc1nc2c(ncn2CCCC(O)CF)c(=O)[nH]1	G	ESM	cytopathic effect	>400 µg/mL
O=c1[nH]c(=O)n([C@H]2O[C@@H](CO)[C@H](O)[C@H]2O)cc1/C=C/Br				>100 µM
Nc1nc2c(ncn2CC(CO)CCO)c(=O)[nH]1	R37	HEL	cytopathic effect / ELISA	32 µM
[N-]=[N+]=NCc1cn([C@H]2C[C@H](O)[C@@H](CO)O2)c(=O)[nH]c1=O	VCX210	PRK	cytopathic effect	1 µg/mL
O=c1c2ncn(COCCO)c2[nH]c2ncc(CO)n12	196		cytopathic effect	>3.2 µg/mL
C/C(=C\Cn1cc(I)c(=O)[nH]c1=O)CO				>100 µg/mL
CO[C@@H]1[C@@H](OC(N)=O)[C@@H](O)[C@H](Oc2ccc3c(O)c(NC(=O)c4ccc(O)c(CC=C(C)C)c4)c(=O)oc3c2C)OC1(C)C	UW	HeLa	cytopathic effect	25 µg/mL
O=c1[nH]c(=O)n(C2CC(CO)[C@@H](O)C2)cc1/C=C/Br	LYONS	PRK	cytopathic effect	20 µg/mL
CC1(C)CCC[C@@]2(C)[C@H]1C[C@@H](O)C1=CC(=O)[C@@]3(C)CC[C@]12C3		VERO		14 µg/mL
O=c1c2ncn(COCCO)c2[nH]c2ncc(C(c3ccccc3)(c3ccccc3)c3ccccc3)n12	G		cytopathic effect	>16 µg/mL
O=c1[nH]c(=O)n(CC=C(CO)CO)cc1I				>100 µg/mL
Nc1nc2c(ncn2/C=C2\CC2(CO)CO)c(=O)[nH]1	MS	HFF	plaque count	>380 µM
O=c1ccn(CC=C(CO)CO)c(=O)[nH]1				>100 µg/mL
CC(=O)O[C@H]1C[C@H]2C(C)(C)CCC[C@]2(C)[C@@]23CCC(C)(C2)[C@H](OC(C)=O)C[C@H]13		VERO		10 µg/mL
O=c1[nH]c(=O)n([C@@H]2C[C@H](CO)[C@@H](O)C2)cc1/C=C/Br	LYONS	PRK	cytopathic effect	20 µg/mL
CC12CC[C@]3(C1)[C@@H](CC2=O)[C@H](O)C[C@H]1C(C)(C)CCC[C@@]13C		VERO		30 µg/mL
Oc1ccc([C@@H]2c3c(O)cc(O)cc3[C@H]3c4c(cc(O)c5c4[C@@H]2[C@H](c2ccc(O)cc2)[C@H]5c2cc(O)cc(O)c2)O[C@@H]3c2ccc(O)cc2)cc1		VERO	MTT	4.5 µM
Nc1ccn(C(CF)CCCO)c(=O)n1	G	ESM	cytopathic effect	>400 µg/mL
CCOP(=O)(CCCN1CC(Cn2c(=O)n(C(=O)c3ccccc3)c(=O)c3ccccc32)N=N1)OCC		HEL	cytopathic effect	17 µM
CC12CC[C@]3(C1)[C@@H](CC[C@H]1C(C)(C)CCC[C@@]13C)CC2=O		VERO		14 µg/mL
O=C1C=C2[C@@H]3C4C(=CC(O)=CC4O[C@H]3c3ccc(O)cc3)C34C(c5ccc(O)cc5)[C@@H]3c3c(O)cc(O)cc3[C@@H]3[C@@H](c5ccc(O)cc5)[C@@H]1C(=O)C234		VERO	MTT	4.5 µM
Nc1nc2c(ncn2CCCC(CO)CO)c(=O)[nH]1	R37	HEL	cytopathic effect / ELISA	15.2 µM
Oc1ccc([C@H]2Oc3cc(O)cc4c3[C@@H]2c2cc(O)cc3c2[C@@H](c2cc(O)cc5c2[C@@H]4[C@H](c2ccc(O)cc2)O5)[C@H](c2ccc(O)cc2)O3)cc1		VERO	MTT	4.2 µM
O=Cc1cn([C@H]2C[C@H](O)[C@@H](CO)O2)c(=O)[nH]c1=O	VCX301	PRK	cytopathic effect	1 µg/mL
Nc1ncn([C@@H]2CC[C@H](CO)O2)c(=O)n1				>100 µM
Nc1nc2c(ncn2COC(CO)CO)c(=O)[nH]1	R37	HEL	cytopathic effect / ELISA	0.4 µM
CC(=O)OCCOCn1cnc2c(=O)n3cc(-c4ccc5ccccc5c4)[nH]c3nc21	G		cytopathic effect	>16 µg/mL
C/C(=C\Cn1cc(C)c(=O)[nH]c1=O)CO				>100 µg/mL
CC1(CO)CCC(Cn2nnc3c(=O)[nH]c(N)nc32)C1(C)C	G	E6SM	cytopathic effect	>200 µg/mL

A second listing of 6 rows from above:

{"compound": "CC(=O)OCCOCn1cnc2c(=O)n3cc(-c4ccc5ccccc5c4)[nH]c3nc21", "strain": "G", "read by": "cytopathic effect", "value": ">16 µg/mL"}
{"compound": "Nc1ccn([C@@H]2OC[C@H](CO)[C@H]2O)c(=O)n1", "strain": "G", "cell line": "E6SM", "read by": "cytopathic effect", "value": ">400 µg/mL"}
{"compound": "O=Cc1cn([C@H]2C[C@H](O)[C@@H](CO)O2)c(=O)[nH]c1=O", "strain": "VCX301", "cell line": "PRK", "read by": "cytopathic effect", "value": "1 µg/mL"}
{"compound": "O=C(NCc1ccc(Cl)cc1)c1cn2c3c(cc(CN4CCOCC4)cc3c1=O)OC(c1cccnc1)C2", "strain": "L6010541 (WILD TYPE)", "cell line": "HFF", "read by": "plaque count", "value": "16.3 µM"}
{"compound": "Nc1ncn([C@@H]2CC[C@H](CO)O2)c(=O)n1", "value": ">100 µM"}
{"compound": "O=c1ccn(N2C[C@H](CO)[C@H]2CO)c(=O)[nH]1", "cell line": "VERO", "read by": "plaque count", "value": ">10 µg/mL"}

ECn is the concentration giving n% inhibition of infection, replication or growth. Neighbouring rows are from separate reports.